Results as given in patent publication US9289381B2, “Stabilization and storage of biological pharmaceutical compositions” (The University of North Carolina at Charlotte, priority 2009, dated 2016).

System: HT-2 cells
Conditions: rIL-2 10 or 100 U/ml

Substance: IL-2: Interleukin-2, a single 133 amino acid polypeptide of molecular weight 15.5 kDa; lyophilized IL-2, human (GenScript) in Example 5
- HT-2 cell proliferation: increased in a dose dependant manner
